Source: PubChem BioAssay AID504761 (Drosophila RNAi Screening Center, 2011)

- Assay: 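Fly genes whose silencing reduces dengue virus type 2 infection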 (primary screen)
- Cell system: D.Mel-2 cells from Drosophila
- Reagents: long dsRNA against Drosophila genes
- Challenge: infection with dengue virus type 2; dose and infection time not stated
- Measurement: 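Cells stained for dengue envelope protein and imaged; percent of infected cells per well on duplicate plates, ranked by infection, with stained nuclei counted for cell number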
- Direction: infection score: higher = more virus-infected cells; cell count: higher = more cells in the well
- Active means: 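Low infection ranks in the two replicates (chance level up to 0.065) followed by a retest with a 1.5-fold or larger significant decrease, p below 0.05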
- Calls: active = confirmed: knock-down lowers infection; inactive = not picked or not confirmed
In all, the deposit lists about 22,000 reagents; this is a random part of those with a known target gene and a result. Over the whole deposit, 116 (0.52%) are marked active. 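Calls depend on retest data that are not deposited; infection was ranked per plate without normalising between plates; the unit of the infection score is not given.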 Raw values are not corrected between plates. Names joined by + are all predicted targets of the reagent. Further read-outs or replicates are left out here. The record does not give: the amount of reagent, the time to read-out.

Gene | amplicon | infection score, replicate 1 | infection score, replicate 2 | cell count, replicate 1 | Call
mthl5 (methuselah-like 5) | DRSC16155 | 2.41 | 2.03 | 6883 | inactive
CG15117 | DRSC06539 | 3.77 | 4.91 | 6097 | inactive
CG15117 | DRSC25471 | 5.45 | 7.09 | 6052 | inactive
CG15539 | DRSC15075 | 1.28 | 14.8 | 705 | inactive
CG14427 | DRSC17921 | 0.45 | 0.61 | 6832 | inactive
CG14427 | DRSC29421 | – | 16.2 | 307 | inactive
CG5895 | DRSC10554 | 1.65 | 2.48 | 6135 | inactive
Pif1A + Pif1B | DRSC14142 | 2.26 | 4.85 | 6320 | inactive
Pif1A + Pif1B | DRSC14380 | 8.48 | 5.44 | 7149 | inactive
Pif1A + Pif1B | DRSC14381 | 0.41 | 6.68 | 6335 | inactive
CG2233 | DRSC18217 | 10.5 | 5.14 | 6829 | inactive
CG10311 | DRSC14228 | 2 | 4.81 | 5989 | inactive
Wnk (Wnk kinase) | DRSC23372 | 5.1 | 12.2 | 5926 | inactive
Nrx-IV (Neurexin IV) | DRSC11238 | 12.7 | 12.2 | 5986 | inactive
CG10993 | DRSC19362 | 3.5 | 4.38 | 6293 | inactive
Hyccin | DRSC06983 | 8.34 | 18.6 | 2170 | inactive
Cadps (Calcium-dependent secretion activator) | DRSC22200 | 1.92 | 4.38 | 6766 | inactive
Cadps (Calcium-dependent secretion activator) | DRSC29264 | 14.6 | 9.39 | 5442 | inactive
CG30001 | DRSC05191 | 1.39 | 4.23 | 5918 | inactive
CG12325 | DRSC06130 | 12.3 | 1.91 | 4894 | inactive
Lst (Limostatin) | DRSC07146 | 5.54 | 7.82 | 6735 | inactive
Lst (Limostatin) | DRSC29304 | 23.5 | 3.8 | 4665 | inactive
Cpsf100 (Cleavage and polyadenylation specificity factor 100) | DRSC14146 | 1.14 | 3.37 | 5533 | inactive
Cpsf100 (Cleavage and polyadenylation specificity factor 100) | DRSC28396 | 2.62 | 1.19 | 1183 | inactive
Rtnl1 (Reticulon-like1) | DRSC00851 | 1.5 | 1.21 | 6342 | inactive
Rtnl1 (Reticulon-like1) | DRSC02684 | 2.9 | 1.53 | 5936 | inactive
Rtnl1 (Reticulon-like1) | DRSC03122 | 2.06 | 1.2 | 5782 | inactive
Rtnl1 (Reticulon-like1) | DRSC21698 | 2.56 | 2.67 | 6247 | inactive
HDAC3 (Histone deacetylase 3) | DRSC12352 | 34.7 | 23.4 | 5574 | inactive
CG2006 + Spase12 | DRSC14316 | 9.62 | 1.46 | 5621 | inactive
lectin-46Cb | DRSC06611 | 3.07 | 8.14 | 6910 | inactive
lectin-46Cb | DRSC25309 | 9.34 | 3.19 | 6404 | inactive
CG4752 | DRSC04486 | 13.8 | 14.1 | 5986 | inactive
CG4752 | DRSC27141 | 12.6 | 10.5 | 5938 | inactive
FucTC (alpha1,3-fucosyltransferase C) | DRSC20966 | 1.52 | 5.31 | 6564 | inactive
FucTC (alpha1,3-fucosyltransferase C) | DRSC29686 | 39.5 | 38.6 | 3371 | inactive
Rtel1 (Regulator of telomere elongation helicase 1) | DRSC18343 | 1.18 | 2.7 | 6681 | inactive
Rtel1 (Regulator of telomere elongation helicase 1) | DRSC26293 | 22.4 | 8.32 | 5111 | inactive
Ppt2 (Palmitoyl-protein Thioesterase 2) | DRSC02786 | 33.8 | 11.1 | 5377 | inactive
Ppt2 (Palmitoyl-protein Thioesterase 2) | DRSC26027 | 5.36 | 8.63 | 4424 | inactive
CG12702 | DRSC19487 | 10.2 | 0.1 | 4696 | inactive
CG12702 | DRSC27645 | 16.8 | 2.59 | 6096 | inactive
CG31523 | DRSC12009 | 1 | 0.44 | 6312 | inactive
CG31523 | DRSC12337 | 1.01 | 2.46 | 6406 | inactive
CG31523 | DRSC27253 | 9.51 | 8.32 | 5827 | inactive
CG2993 | DRSC14284 | 3.63 | 22.5 | 6343 | inactive
CG2993 | DRSC15457 | 4.3 | 4.3 | 6586 | inactive
CG2993 | DRSC29995 | 11.5 | 7.35 | 6525 | inactive
l(3)neo38 (lethal (3) neo38) | DRSC14946 | 2.67 | 13.2 | 6138 | inactive
l(3)neo38 (lethal (3) neo38) | DRSC16138 | 4.17 | 1.53 | 6361 | inactive
l(3)neo38 (lethal (3) neo38) | DRSC23262 | 2.36 | 30.4 | 6155 | inactive
l(3)neo38 (lethal (3) neo38) | DRSC27112 | 26.7 | 28.6 | 5885 | inactive
l(3)neo38 (lethal (3) neo38) | DRSC27668 | 5.11 | 8.01 | 6051 | inactive
CG3358 | DRSC04992 | 10.2 | 39.4 | 6514 | inactive
mRpL20 (mitochondrial ribosomal protein L20) | DRSC09828 | 1.99 | 2.24 | 6283 | inactive
Pfdn1 (Prefoldin 1) | DRSC02325 | 6.38 | 5.38 | 6241 | inactive
Pfdn1 (Prefoldin 1) | DRSC26624 | 2.7 | 2.22 | 6139 | inactive
Su(fu) (Suppressor of fused) | DRSC16871 | 24.9 | 28.2 | 4544 | inactive

3 of these entries, set out differently.
{"Gene":"Cpsf100 (Cleavage and polyadenylation specificity factor 100)","amplicon":"DRSC28396","infection score, replicate 1":2.62,"infection score, replicate 2":1.19,"cell count, replicate 1":1183,"Call":"inactive"}
{"Gene":"Rtnl1 (Reticulon-like1)","amplicon":"DRSC00851","infection score, replicate 1":1.5,"infection score, replicate 2":1.21,"cell count, replicate 1":6342,"Call":"inactive"}
{"Gene":"Rtnl1 (Reticulon-like1)","amplicon":"DRSC02684","infection score, replicate 1":2.9,"infection score, replicate 2":1.53,"cell count, replicate 1":5936,"Call":"inactive"}
